A value given as a limit tells only on which side of the number the result lay.

This data set has as its system HIV-1NL4-3. The experiment in a line: HIV-1 infectivity in TZM-bl cells (LTR-driven F-Luc). The data set is classed as cell-based. The protocol:
(A) (Upper panel) Doxycycline (Dox)-inducible Tat-expressing bl-DTR cells cultured in 96-well plates treated with two-fold serial dilutions of each compound in the presence of Dox (50 ng/mL). At 24 h after treatment, the activity of firefly luciferase (F-Luc), indicating Tat activity, was determined as described in the Materials and Methods section. (Bottom panel) TZM-bl cells were treated with two-fold serial dilutions of the indicated compound and then infected with the HIV-1NL4-3 strain at a multiplicity of infection (MOI) of 1. At 24 h after infection, the viral infectivity and cell viability were determined as described in the Materials and Methods section. […] (B) 2 × 10^5 TZM-bl cells growing in 6-well plates were infected with HIV-1 (MOI = 1), transfected with a Tat-expressing plasmid (2 μg) or treated with PMA ([…]) upon indicated compounds at indicated concentrations, respectively. At 24 h after treatment, LTR promoter activity was determined via a Bright-Glo Luciferase Assay Kit. […] The mobility of biotinylated TAR RNA was detected by chemiluminescence.
To determine the inhibitory effect of hit compounds on HIV-1 infection, we used TZM-bl cells (also referred to as JC53BL-13), which express HIV-1 receptors and contain the LTR-driven F-Luc gene controlled by HIV-1 infection, as described previously but with some minor modifications. […] At 24 h after infection, the inhibitory effect of the hit compounds on infectivity was determined using the Bright-Glo Luciferase Assay Kit (Promega). The dose–response data are expressed as a relative percentage compared to the DMSO control (vehicle). The inhibitory effects of the hit compounds on HIV-1 replication were determined as previously described. […] After infection, the cells were treated with hit compounds at the indicated concentrations at 3–5 days after treatment, and the inhibitory effect of hit compounds on viral replication was determined by the titration of virions from the cell supernatant using a p24 […]™ Assay Kit (PerkinElmer) according to the manufacturer’s instructions. […]
For `O=C(O)C1CCCc2sc(C=Cc3cc(Cl)c4c(c3)OCCO4)nc21` (stereo not drawn) [Hit 458-F08, 2-(2-(8-Chloro-2,3-dihydrobenzo[b][1,4]dioxin-6-yl)vinyl)-4,5,6,7-tetrahydrobenzo[d]thiazole-4-carboxylic acid], the “SI (selectivity index)” value is on record as more than 9.720. Consider `Cc1ccc(-c2csc3ncnc(NCCCc4n[nH]c(N)c4C#N)c23)cc1` [Hit 463-B11, 5-Amino-3-(3-(5-p-tolylthieno[2,3-d]pyrimidin-4-ylamino)propyl)-1H-pyrazole-4-carbonitrile], for which the “SI (selectivity index)” value is more than 2.484.

Regarding `Cc1ccc(Nc2cc3c(n[n+]([O-])n3CCCN3CCCCC3)c3c2C(=O)c2ccccc2C3=O)cc1` [Hit 464-A09, 6,11-Dioxo-3-(3-(piperidin-1-yl)propyl)-5-(p-tolylamino)-6,11-dihydro-3H-anthra[1,2-d][1,2,3]triazole 2-oxide], the “SI (selectivity index)” value amounted to 1.645.

(Values after publication PMC10252837, “A Novel Time-Resolved Fluorescence Resonance Energy Transfer Assay for the Discovery of Small-Molecule Inhibitors of HIV-1 Tat-Regulated Transcription” (International Journal of Molecular Sciences, 2023).)
